Assay results taken from US5756666A, “Peptides capable of inducing immune response to HIV” (priority 1993, dated 1998).

System: T2-B * 3501 cells
Details: patient lymphocytes stimulated with 1 μM peptide; target T2-B*3501 cells, T2 cells as control; FIGS. 2-4

How did the “induction of CTL with specific cytotoxic activity” value turn out when `CC[C@H](C)[C@H](NC(=O)[C@H](C)NC(=O)[C@@H]1CCCN1C(=O)[C@@H](N)CO)C(=O)N[C@@H](Cc1ccccc1)C(=O)N[C@@H](CCC(N)=O)C(=O)N[C@@H](CO)C(=O)N[C@@H](CO)C(=O)N[C@@H](CCSC)C(=O)O` was run?
The value was “effective for inducing CTLs capable of damaging the synthetic peptide-binding T2-B * 3501 cells”.

How did the “induction of CTL with specific cytotoxic activity” value turn out when `CC[C@H](C)[C@H](NC(=O)[C@@H]1CCCN1C(=O)[C@@H](N)CCC(=O)O)C(=O)N[C@H](C(=O)NCC(=O)N[C@@H](C)C(=O)N[C@@H](CCC(=O)O)C(=O)N[C@H](C(=O)N[C@@H](Cc1ccccc1)C(=O)N[C@@H](Cc1ccc(O)cc1)C(=O)O)[C@@H](C)O)C(C)C` was run?
The value was “effective for inducing CTLs capable of damaging the synthetic peptide-binding T2-B * 3501 cells”.
